{"source": "PubChem BioAssay AID504761 (Drosophila RNAi Screening Center, 2011)", "assay": "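Insect host genes that dengue virus relies on to spread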 (primary screen)", "cell system": "D.Mel-2 cells from Drosophila", "reagents": "long dsRNA against Drosophila genes", "challenge": "infection with dengue virus type 2; dose and infection time not stated", "read-out": "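Cells stained for dengue envelope protein and imaged; percent of infected cells per well on duplicate plates, ranked by infection, with stained nuclei counted for cell number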", "scale": "infection score: higher = more virus-infected cells; cell count: higher = more cells in the well", "rule for the call": "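Very low infection ranking in both replicate wells (chance probability at most 0.065), then a retest showing infection dropped 1.5-fold or more at p below 0.05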", "meaning of the calls": "active = confirmed: knock-down lowers infection; inactive = not picked or not confirmed", "note": "The deposit covers about 22,000 reagents; shown is a random part of those that have a named target and a result. Over the whole deposit, 116 (0.52%) are marked active. 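Calls depend on retest data that are not deposited; infection was ranked per plate without normalising between plates; the unit of the infection score is not given.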 The raw values are shown without normalisation. Entries without a mark were called inactive. Names joined by + are all predicted targets of the reagent. Not all columns of the deposit are shown. No sequences are given here. Not given: the amount of reagent, the time to read-out."}
The first 2 records, ahead of the listing:
{"gene": "CG32109", "dsRNA": "DRSC09816", "infection score, replicate 1": 2.43, "cell count, replicate 1": 5916}
{"gene": "Rh7", "dsRNA": "DRSC10529", "infection score, replicate 1": 2.48, "cell count, replicate 1": 5635}

The listing, repeating the preview:
{"gene": "CG32109", "dsRNA": "DRSC09816", "infection score, replicate 1": 2.43, "cell count, replicate 1": 5916}
{"gene": "Rh7", "dsRNA": "DRSC10529", "infection score, replicate 1": 2.48, "cell count, replicate 1": 5635}
{"gene": "Rh7", "dsRNA": "DRSC28331", "infection score, replicate 1": 14, "cell count, replicate 1": 5295}
{"gene": "CG32061", "dsRNA": "DRSC22605", "infection score, replicate 1": 9.77, "cell count, replicate 1": 6396}
{"gene": "Mst36Fb", "dsRNA": "DRSC28786", "infection score, replicate 1": 19.4, "cell count, replicate 1": 2067}
{"gene": "CG11298", "dsRNA": "DRSC04100", "infection score, replicate 1": 8.98, "cell count, replicate 1": 6860}
{"gene": "CG3803", "dsRNA": "DRSC04420", "infection score, replicate 1": 16.7, "cell count, replicate 1": 5139}
{"gene": "CG17193", "dsRNA": "DRSC15187", "infection score, replicate 1": 5.67, "cell count, replicate 1": 6441}
{"gene": "GNBP3", "dsRNA": "DRSC11170", "infection score, replicate 1": 1.3, "cell count, replicate 1": 6408}
{"gene": "CG18666", "dsRNA": "DRSC02694", "infection score, replicate 1": 2.41, "cell count, replicate 1": 6185}
{"gene": "Mvk + CG33672 + spt4", "dsRNA": "DRSC05356", "infection score, replicate 1": 2.28, "cell count, replicate 1": 5925}
{"gene": "Mvk + CG33672 + spt4", "dsRNA": "DRSC06628", "infection score, replicate 1": 3.25, "cell count, replicate 1": 6483}
{"gene": "Akt", "dsRNA": "DRSC14108", "infection score, replicate 1": 7.75, "cell count, replicate 1": 6997}
{"gene": "CG40439", "dsRNA": "DRSC22707", "infection score, replicate 1": 2.78, "cell count, replicate 1": 6839}
{"gene": "CG40439", "dsRNA": "DRSC26673", "infection score, replicate 1": 8.96, "cell count, replicate 1": 6071}
{"gene": "Tango9", "dsRNA": "DRSC14173", "infection score, replicate 1": 24.8, "cell count, replicate 1": 3495}
{"gene": "CG5327", "dsRNA": "DRSC06930", "infection score, replicate 1": 3.19, "cell count, replicate 1": 5984}
{"gene": "CG12084", "dsRNA": "DRSC08247", "infection score, replicate 1": 11.4, "cell count, replicate 1": 6039}
{"gene": "CG12084", "dsRNA": "DRSC26814", "infection score, replicate 1": 6.66, "cell count, replicate 1": 6214}
{"gene": "rho-7", "dsRNA": "DRSC07304", "infection score, replicate 1": 6.59, "cell count, replicate 1": 6831}
{"gene": "CG14969", "dsRNA": "DRSC08428", "infection score, replicate 1": 8.79, "cell count, replicate 1": 6644}
{"gene": "CG17770 + Acam", "dsRNA": "DRSC14110", "infection score, replicate 1": 1.27, "cell count, replicate 1": 6534}
{"gene": "CG17770 + Acam", "dsRNA": "DRSC15264", "infection score, replicate 1": 1.18, "cell count, replicate 1": 6586}
{"gene": "CG17770 + Acam", "dsRNA": "DRSC24252", "infection score, replicate 1": 4.74, "cell count, replicate 1": 5149}
{"gene": "CG17770 + Acam", "dsRNA": "DRSC29529", "cell count, replicate 1": 323}
{"gene": "Spn43Ab", "dsRNA": "DRSC06781", "infection score, replicate 1": 6.06, "cell count, replicate 1": 6520}
{"gene": "Spn43Ab", "dsRNA": "DRSC28317", "infection score, replicate 1": 10.1, "cell count, replicate 1": 3859}
